Data taken from ChEMBL document CHEMBL2086264.

Assay: Ratio of IC50 for PlsY in Staphylococcus aureus RN4220 harboring gpsA mutant to IC50 for Bacillus anthracis PlsY1

SMILES: O=C(CCCCCCCc1ccccc1)NS(=O)(=O)Oc1ccccc1
- Ratio IC50: 2
